Values joined by “and” are separate entries in the source; they are usually repeats but may differ in a detail not shown here. Equal entries are not always repeated.
Tested on: P. falciparum NF54
Assay: In vitro microplate assay against P. falciparum NF54 (3H-hypoxanthine incorporation, erythrocytic stages)
Assay type: cell-based, Plasmodium falciparum
Details: selectivity index, L-6 cells vs P.f. NF54
Procedure: All newly synthesized compounds were tested for their antiplasmodial activity against the chloroquine-sensitive strain Plasmodium falciparum NF54. Cytotoxicity was determined using rat skeletal myofibroblasts (L-6 cells). As standards chloroquine and podophyllotoxin were used.
In vitro activity against erythrocytic stages of P. falciparum was determined with a ^3H-hypoxanthine incorporation assay, using the chloroquine sensitive NF54 strain [44]. Chloroquine (Sigma C6628) was used as standard. Test compounds were dissolved in DMSO at 10 mg/mL and added to parasite cultures incubated in RPMI 1640 medium without hypoxanthine, supplemented with HEPES (5.94 g/L, NaHCO3 (2.1 g/L), neomycin (100 U/mL), Albumax (5 g/L) and washed human red blood cells A^+ at 2.5% hematocrit (0.3% parasitemia). Serial drug dilutions of 11 3-fold dilution steps (covering a range from 100–0.002 µg/mL) were prepared. The 96-well plates were incubated at a humidified atmosphere at 37 °C; 4% CO2, 3% O2, 93% N2. After 48 h, 0.05 mL of ^3H-hypoxanthine (=0.5 µCi) was added to each well. The plates were incubated for another 24 h under the same conditions. Then, the plates were harvested with a Betaplate cell harvester (Wallac, Zurich, Switzerland). The red blood cells were transferred onto glass fiber filter and washed with distilled water. The dried filters were inserted into a plastic foil with 10 mL of scintillation fluid and counted in a Betaplate liquid scintillation counter. IC50 values were determined from sigmoidal inhibition curves by linear regression using Microsoft Excel. Chloroquine was used as control.

| Compound | S.I. = IC50 (Cyt.)/IC50 (P.f. NF54) |
| --- | --- |
| CC(C)(C)OC(=O)N1CCN(c2ccccc2NC(=O)c2cccc(C(F)(F)F)c2Oc2ccccc2)CC1 [Compound 6, tert-Butyl-4-{2-[2-phenoxy-3-(trifluoromethyl)benzamido]phenyl}piperazine-1-carboxylate] | 127.1 |
| CC(C)(C)OC(=O)N1CCN(c2ccccc2NC(=O)c2cccc(C(F)(F)F)c2)CC1 [Compound 7, tert-Butyl-4-{2-[3-(trifluoromethyl)benzamido]phenyl}piperazine-1-carboxylate] | 30.22 |
| O=C(Nc1ccccc1)c1cccc(C(F)(F)F)c1Oc1ccc(F)cc1 [Compound 12, 2-(4-Fluorophenoxy)-N-phenyl-3-(trifluoromethyl)benzamide] | 21.71 |
| CC(C)(C)OC(=O)Nc1ccccc1NC(=O)c1cccc(C(F)(F)F)c1Oc1ccc(F)cc1 [Compound 13, tert-Butyl-N-{2-[2-(4-fluorophenoxy)-3-(trifluoromethyl)benzamido]phenyl}carbamate] | 9.043 |
| CC(=O)N1CCN(c2ccccc2NC(=O)c2cccc(C(F)(F)F)c2Oc2ccc(F)cc2)CC1 [Compound 17, N-[2-(4-Acetylpiperazin-1-yl)phenyl]-2-(4-fluorophenoxy)-3-(trifluoromethyl)benzamide] | 10.72 |
| O=CN1CCN(c2ccccc2NC(=O)c2cccc(C(F)(F)F)c2Oc2ccc(F)cc2)CC1 [Compound 18, 2-(4-Fluorophenoxy)-N-[2-(4-formylpiperazin-1-yl)phenyl]-3-(trifluoromethyl)benzamide] | 4.829 |
| CC(C)(C)C(=O)N1CCN(c2ccccc2NC(=O)c2cccc(C(F)(F)F)c2Oc2ccc(F)cc2)CC1 [Compound 19, N-{2-[4-(2,2-Dimethylpropanoyl)piperazin-1-yl]phenyl}-2-(4-fluorophenoxy)-3-(trifluoromethyl)benzamide] | 299.7 |
| CC(C)(C)N1CCN(c2ccccc2NC(=O)c2cccc(C(F)(F)F)c2Oc2ccc(F)cc2)CC1 [Compound 20, 2-(4-Fluorophenoxy)-N-[2-(4-tert-butylpiperazin-1-yl)phenyl]-3-(trifluoromethyl)benzamide] | 12.01 |
| CN(C)C(=O)N1CCN(c2ccccc2NC(=O)c2cccc(C(F)(F)F)c2Oc2ccc(F)cc2)CC1 [Compound 22, N-{2-[4-(N,N-Dimethylcarbamoyl)piperazin-1-yl]phenyl}-2-(4-fluorophenoxy)-3-(trifluoromethyl)benzamide] | 8.770 |
| CC(C)(C)OC(=O)N1CCN(c2cccc(NC(=O)c3cccc(C(F)(F)F)c3Oc3ccc(F)cc3)c2)CC1 [Compound 36, tert-Butyl-4-{3-[2-(4-fluorophenoxy)-3-(trifluoromethyl)benzamido]phenyl}piperazine-1-carboxylate] | 37.58 |
| CC(C)(C)OC(=O)N1CCN(c2ccc(NC(=O)c3cccc(C(F)(F)F)c3Oc3ccc(F)cc3)cc2)CC1 [Compound 37, tert-Butyl-4-{4-[2-(4-fluorophenoxy)-3-(trifluoromethyl)benzamido]phenyl}piperazine-1-carboxylate] | 461.0 |
| CC(C)(C)C(=O)N1CCN(c2cccc(NC(=O)c3cccc(C(F)(F)F)c3Oc3ccc(F)cc3)c2)CC1 [Compound 38, N-{3-[4-(2,2-Dimethylpropanoyl)piperazin-1-yl]phenyl}-2-(4-fluorophenoxy)-3-(trifluoromethyl)benzamide] | 24.61 |
| CC(C)(C)C(=O)N1CCN(c2ccc(NC(=O)c3cccc(C(F)(F)F)c3Oc3ccc(F)cc3)cc2)CC1 [Compound 39, N-{4-[4-(2,2-Dimethylpropanoyl)piperazin-1-yl]phenyl}-2-(4-fluorophenoxy)-3-(trifluoromethyl)benzamide] | 171.8 and 171.9 |
| Nc1cccc(NC(=O)c2cccc(C(F)(F)F)c2Oc2ccc(F)cc2)c1 [Compound 50, N-(3-Aminophenyl)-2-(4-fluorophenoxy)-3-(trifluoromethyl)benzamide] | 2.026 |
| Nc1ccc(NC(=O)c2cccc(C(F)(F)F)c2Oc2ccc(F)cc2)cc1 [Compound 51, N-(4-Aminophenyl)-2-(4-fluorophenoxy)-3-(trifluoromethyl)benzamide] | 2.328 |
| CC(C)(C)OC(=O)N1CCN(c2ccc(NC(=O)c3cccc(C(F)(F)F)c3Oc3ccccc3)cc2)CC1 [Compound 54, tert-Butyl-4-{4-[2-phenoxy-3-(trifluoromethyl)benzamido]phenyl}piperazine-1-carboxylate] | 151.4 |
| CC(C)(C)C(=O)N1CCN(c2ccc(NC(=O)c3cccc(C(F)(F)F)c3Oc3ccccc3)cc2)CC1 [Compound 55, N-{4-[4-(2,2-Dimethylpropanoyl)piperazin-1-yl]phenyl}-2-phenoxy-3-(trifluoromethyl)benzamide] | 19.27 |
| CC(C)(C)C(=O)N1CCN(c2ccccc2NC(=O)c2cccc(C(F)(F)F)c2Oc2ccccc2)CC1 [Compound 56, N-{2-[4-(2,2-Dimethylpropanoyl)piperazin-1-yl]phenyl}-2-phenoxy-3-(trifluoromethyl)benzamide] | 288.6 |
